Results reported in the supplement of paper PMC9931576.
Human monoclonal antibodies against the spike receptor-binding domain (heavy:light variable regions). IC50 against pseudoviruses bearing the spike of naturally observed variants; lower = stronger; >10 µg/ml means not reached at the top dose. No active / inactive call. The stated detection limit is 0.0005 µg/ml; values near or below 0.001 µg/ml lie at the floor of the assay.

B1: BD55-939 (protein)
chain 1: EVQLVESGGGLVQPGRSLRLSCAASGFTFEDYAMHWVRQAPGRGLEWVSGISWNGGTIGYADSVKGRFIISRDNAKNSLYLQTNSLRAEDTALYYCAKDMFLGDEAYCGGDCFAFDIWGQGTMVTVSS
chain 2: QSVLTQPPSVSGAPGQRVTISCTGSSSNIGPGYDVHWYQQLPGTAPKLLIYGNSNRPSGVPDRFSGSKSGTSASLAITGLQAEDEADYYCQSYDNSLSGLVVFGGGTKLTVL
B2: BD55-917 (protein)
chain 1: QVQLVQSGAEVRKPGSSVTVACKSSEDIFNTYAFGWVRQAPGQGPEWMGRIIPRLNSISSAQKFRGRVSITADTSTTTVYLELISLRYEDTAVYYCARGRGGGWSEFDDWGRGTLVTVSS
chain 2: DNQMTQSPTSLSASVGDRVTIACRASQSVNTFLNWYQQPPGKPPKLLISAASRLENGVPSRFSGSGSGTDFTLTITNLQPEDFATYYCQQSYFAPFNFGPGTKVDIK
B3: BD55-935 (protein)
chain 1: EVQLVESGGDLVQPGRSLRLSCAASGFTFDDYAMHWVRQAPGKGLQWVSGISWNSGIIGYADSVKGRFTISRDNAKNSLYLQMNTLRAEDTALYYCARDGGGGSGERWFAPWGQGTLVTVSS
chain 2: SYVLTQPPSVSVAPGKTASITCGGNTIGSKTVHWYQHKPGQAPVLVVYDDSDRPSGIPERFSGSNSGNTATLTISRVEAGDEADYYCQVWDSDSDHHVFGTGTKVTVL
B4: BD55-927 (protein)
chain 1: QVQLQQSGPGLVKPSQTLSLTCAISGDSVSSNSAAWNWIRQSPSRGLEWLGRTYYRSKWYNDYAVSVKSRITLNPDTSKNQFSLQLSSVTPEDTAVYYCAREGELPWFGEGAFDVWGLGTMITVSS
chain 2: EIVLTQSPGTLSLSPGERATLSCRASHSVSTSSLAWYQQKPGQAPRLLIYDASSRATGIPDRFSGSGSGTDFTLTISRLEPEDFAVYYCQQYGGSPYTFGQGTKLEIK
B5: BD55-918 (protein)
chain 1: QVQLVESGGGVVQHGRSLRLSCAASGFTFNDYAMYWVRQAPGKGLEWVAVISFDGSTRYYTDSVKGRLTISRDNSKNTLYLQMNSLRAEDTAVYYCARDLLRYFDWLYGMDVWGQGTTVTVSS
chain 2: QSALTQPRSVSGSPGQSVTISCTGTSSDVGDYDYVSWYQQHPGKAPKLIIYDVSKRPSGVPDRFSGSKSGNTASLTISGLQAEDEADYYCYSYAGSYTLGVFGGGTKLPVL
B6: BD55-898 (protein)
chain 1: VQLQESGPGLVKPSQTLSLTCTVSGGSISNDEHFWNWIRQHPRKGLEWIGYIYHSGSTSYNPSLQSRVTLSIDTSKNQFSLRLRSVTAADTAVYYCARGTEYCSGRNCFGEGWFDPWGQGSLVTVSS
chain 2: SYELTQPPSVSVSPGQTANITCSGDKLGNRYASWYQQRPGRSPVVVIYEDNKRPSGIPERFSGSTSGNTATLTISGTQAMDEADYYCQAWDSDAVVFGGGTKLAVL

What was measured:
Assay in all cases: pseudovirus neutralization IC50; higher = weaker neutralization
[1] = target: SARS-CoV-2 Omicron BA.1 spike pseudovirus
Experimental: (§1)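 Single-round VSV luciferase pseudovirus mixed with antibody dilutions for 1 h and put on Huh-7 cells for about a day; IC50 from the dose curve.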

[2] = target: SARS-CoV-2 Omicron BA.2 spike pseudovirus
Experimental: as §1

[3] = target: SARS-CoV-2 Omicron BA.2.75 spike pseudovirus
Experimental: as §1

[4] = target: SARS-CoV-2 Omicron BA.5 spike pseudovirus
Experimental: as §1

[5] = target: SARS-CoV-2 Omicron BQ.1.1 spike pseudovirus
Experimental: as §1

[6] = target: SARS-CoV-2 Omicron XBB spike pseudovirus
Experimental: as §1

[7] = target: SARS-CoV-2 early D614G spike pseudovirus
Experimental: as §1

Binder | pseudovirus neutralization IC50 [1] | pseudovirus neutralization IC50 [2] | pseudovirus neutralization IC50 [3] | pseudovirus neutralization IC50 [4] | pseudovirus neutralization IC50 [5] | pseudovirus neutralization IC50 [6] | pseudovirus neutralization IC50 [7]
B1 | 0.843 µg/mL | 1.17 µg/mL | 1.5 µg/mL | > 10 µg/mL | > 10 µg/mL | > 10 µg/mL | 0.259 µg/mL
B2 | > 10 µg/mL | > 10 µg/mL | > 10 µg/mL | > 10 µg/mL | > 10 µg/mL | > 10 µg/mL | 0.0793 µg/mL
B3 | > 10 µg/mL | > 10 µg/mL | > 10 µg/mL | > 10 µg/mL | > 10 µg/mL | > 10 µg/mL | > 10 µg/mL
B4 | 8.36 µg/mL | > 10 µg/mL | > 10 µg/mL | > 10 µg/mL | > 10 µg/mL | > 10 µg/mL | 1.24 µg/mL
B5 | > 10 µg/mL | > 10 µg/mL | > 10 µg/mL | > 10 µg/mL | > 10 µg/mL | > 10 µg/mL | > 10 µg/mL
B6 | > 10 µg/mL | > 10 µg/mL | > 10 µg/mL | > 10 µg/mL | > 10 µg/mL | > 10 µg/mL | > 10 µg/mL
